# Changes are numbered by the printed parent chain. This is one part of the list. Env chains of viruses from a treatment-interruption trial, translated from the printed DNA. IC50 / IC80 of two broadly neutralizing antibodies; lower = more sensitive virus; >50 µg/ml means not reached and <0.001 µg/ml is below the lowest dose. No active / inactive call.
# B1: HIV-1 Env, rebound clone, placebo arm (protein)
# chain: MRVKGIRKSCQRLWRWGIMLLGMLMISSATEKLWVTVYYGVPVWKEANTTLFCASDAKAYDTEAHNVWATHACVPTDPNPQELDLENVTENFNMWKNGMVEQMHEDVISLWDQSLKPCVKLTPLCVTLNCTNDVNLRVNSSNSNSSINSSSSISNSSIEEKGEIKNCSFNITTSIRDKVTKEYALFYRLDIVSIKDDKSDNSNNTNTRYRLINCNTSVITQACPKVSFEPIPIHYCAPAGFAILKCKDREFNGSGTCQNVSTVQCTHGIKPVVSTQLLLNGSLAEGEVVIRSENFSDNAKTIIVQLSRPVVINCTRPNNNTRKSIHIAPGRTFYATGDIIGDIRQAHCNISKRDWNKTLKEVKGKLEKQYNKTILFNQSSGGDPEIVFHTFNCAGEFFYCNTTNLFNNNITINNGTNGTNTNENITLPCRIKQIINLWQEVGKAMYAPPIKGQIRCSSNITGLLLTRDGGLNENRTNDTVRPGGGDMRDNWRSELYRYKVVEIEPLGIAPTKAKRRVVQREKRAVGAIGAMFLGLLGAAGSTMGAASITLTVQARLVLSGIVQQQNNLLRAIEAQQHLLQLTVWGIKQLQARVLAVERYLKDQQLLGIWGCSGKLICTTSVPWNSSWSNRSLEYIWNNMTWMQWEREIDNYTGKIYTLIEEAQHKQEENELELLKLDEWSNLWNWFDISKWLWYIKIFIMIVGGLIGLRIVFAVISIVNRVRKGYSPLSFQTHFPAPRGPDRPGGTEEEGGDRDRDRSTRLVDGFLALVWDDLRSLILFLYHHLRDLLLIITRIVGLLGRRGWEILKYWWNLLQYWSRELKLSAISLYNATAVAVAEGTDRVIEVVQRIFRGVLHIPRRIRQGLERILV
# B2: HIV-1 Env, rebound clone, placebo arm (protein)
# chain: B1 chain with V702I, I856V
# B3: HIV-1 Env, rebound clone, placebo arm (protein)
# chain: B1 chain with L464F, I856V
# Target: antibody 10-1074
# Assay: neutralization IC50; higher = virus less sensitive to the antibody
# Experimental: (§1)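 Pseudovirus bearing the Env chain mixed with antibody, from 50 µg/ml in fivefold dilutions, on TZM-bl reporter cells, in duplicate.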
row,Binder,neutralization IC50 [µg/mL]
1,B1,0.017
2,B2,0.022
3,B3,0.014

# Target: antibody 3BNC117
# Assay: as above
# Experimental: as §1
row,Binder,neutralization IC50 [µg/mL]
1,B1,0.081
2,B2,0.129
3,B3,0.063

# Target: antibody 10-1074
# Assay: neutralization IC80; higher = virus less sensitive to the antibody
# Experimental: as §1
row,Binder,neutralization IC80 [µg/mL]
1,B1,0.048
2,B2,0.06
3,B3,0.048

# Target: antibody 3BNC117
# Assay: as above
# Experimental: as §1
row,Binder,neutralization IC80 [µg/mL]
1,B1,0.283
2,B2,0.339
3,B3,0.168

# Reference: the supplement of paper PMC12637763
